Record: PubChem BioAssay AID624099 (ICCB-Longwood, 2012)
Here is a random part of about 21,000 reagents. 497 of them (2.4%) count as active. 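Higher z means weaker E2 silencing; only reporter increases were scored, and knock-downs that hurt cell survival may mask genuine repressor factors.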

Assay: 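Host factors E2 relies on to silence an HPV18 LCR reporter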 (primary screen)
Cells: human C33A cervical carcinoma cells (HPV-negative) stably expressing BPV1 E2 and an HPV18 LCR luciferase reporter
Reagent: siRNA pool against human genes, 40 nM
Timing: 72 h
Measurement: 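HPV18 LCR reporter light per well, converted to plate-wise z-scores that exclude control wells, and averaged over triplicate plates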
Scale: mean z-score and z-score: higher = stronger reporter signal, weaker E2 silencing
Active means: 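Hit if mean z-score reaches 2 and two or more of three replicate z-scores also reach 2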

{"target gene": "LOC401440 (retired record)", "mean z-score": -0.26, "z-score, replicate A": -0.32, "z-score, replicate B": 0.06, "z-score, replicate C": -0.52, "outcome": "inactive"}
{"target gene": "SACS", "mean z-score": -0.64, "z-score, replicate A": -0.27, "z-score, replicate B": -0.74, "z-score, replicate C": -0.92, "outcome": "inactive"}
{"target gene": "GCH1", "mean z-score": 1.03, "z-score, replicate A": 0.55, "z-score, replicate B": 1.65, "z-score, replicate C": 0.89, "outcome": "inactive"}
{"target gene": "STK4", "mean z-score": 0.65, "z-score, replicate A": 0.93, "z-score, replicate B": 0.91, "z-score, replicate C": 0.12, "outcome": "inactive"}
{"target gene": "LINC01085", "mean z-score": -0.67, "z-score, replicate A": -0.89, "z-score, replicate B": -0.52, "z-score, replicate C": -0.6, "outcome": "inactive"}
{"target gene": "TXNDC9", "mean z-score": 0.58, "z-score, replicate A": 0.59, "z-score, replicate B": 0.48, "z-score, replicate C": 0.66, "outcome": "inactive"}
{"target gene": "ATG13", "mean z-score": -1.78, "z-score, replicate A": -1.88, "z-score, replicate B": -1.85, "z-score, replicate C": -1.62, "outcome": "inactive"}
{"target gene": "GLUD1P4", "mean z-score": 0.31, "z-score, replicate A": 0.55, "z-score, replicate B": 0.16, "z-score, replicate C": 0.22, "outcome": "inactive"}
{"target gene": "TIPIN", "mean z-score": -0.16, "z-score, replicate A": -0.44, "z-score, replicate B": -0.09, "z-score, replicate C": 0.03, "outcome": "inactive"}
{"target gene": "RAB3D", "mean z-score": 1.09, "z-score, replicate A": 1.01, "z-score, replicate B": 1.13, "z-score, replicate C": 1.12, "outcome": "inactive"}
{"target gene": "TMEM39B", "mean z-score": -0.92, "z-score, replicate A": -0.9, "z-score, replicate B": -1.36, "z-score, replicate C": -0.49, "outcome": "inactive"}
{"target gene": "KRTAP1-3", "mean z-score": 0.95, "z-score, replicate A": 1.2, "z-score, replicate B": 1.02, "z-score, replicate C": 0.62, "outcome": "inactive"}
{"target gene": "LOC392512 (retired record)", "mean z-score": 0.6, "z-score, replicate A": 0.38, "z-score, replicate B": 0.6, "z-score, replicate C": 0.82, "outcome": "inactive"}
{"target gene": "WDR44", "mean z-score": -1.06, "z-score, replicate A": -1.42, "z-score, replicate B": -0.99, "z-score, replicate C": -0.78, "outcome": "inactive"}
{"target gene": "SRPRA", "mean z-score": 0.45, "z-score, replicate A": 0.43, "z-score, replicate B": 0.66, "z-score, replicate C": 0.27, "outcome": "inactive"}
{"target gene": "RHEB", "mean z-score": -0.13, "z-score, replicate A": -0.28, "z-score, replicate B": -0.33, "z-score, replicate C": 0.23, "outcome": "inactive"}
{"target gene": "COL20A1", "mean z-score": -1.38, "z-score, replicate A": -1.2, "z-score, replicate B": -1.2, "z-score, replicate C": -1.74, "outcome": "inactive"}
{"target gene": "TIGIT", "mean z-score": -0.97, "z-score, replicate A": -1.22, "z-score, replicate B": -0.72, "z-score, replicate C": -0.97, "outcome": "inactive"}
{"target gene": "PCAT4", "mean z-score": -0.05, "z-score, replicate A": 0.28, "z-score, replicate B": 0.02, "z-score, replicate C": -0.45, "outcome": "inactive"}
{"target gene": "MACROD2", "mean z-score": 0.21, "z-score, replicate A": 0.66, "z-score, replicate B": 0.29, "z-score, replicate C": -0.33, "outcome": "inactive"}
{"target gene": "PKIA", "mean z-score": -0.86, "z-score, replicate A": -0.92, "z-score, replicate B": -0.79, "z-score, replicate C": -0.86, "outcome": "inactive"}

An excerpt from above, limited to “z-score, replicate A”.
GCH1 = 0.55
STK4 = 0.93
LINC01085 = -0.89
